Test results from paper PMC9027599, “Secondary Metabolites in Basil, Bio-Insecticide, Inhibition Effect, and In Silico Molecular Docking against Proteolytic Enzymes of the Red Palm Weevil (Rhynchophorus ferrugineus)” (Plants, 2022).

Test system: R. ferrugineus adults
Settings: probit analysis, 95% confidence limits in brackets
Experimental: The R. ferrugineus adult and larvae were acquired from an insect breeding lab at King Faisal University’s Date Palm Research Center of Excellence and grown utilizing sugarcane stem long pieces. The extracts activity against larvae was determined by using topical application method with storing larvae at 4–5 °C for 5 min. Previous serial concentrations of extract (10 µL) were applied to the dorsum of each larvae using a hand-operated micro-applicator (Burkard Manufacturing Co., Ltd., Hertfordshire, UK with a 50-ll micro-syringe (MS-N50; Ito Corp., Shizuoka, Japan). Each larva was feeding on 10 cm stem pieces of long sugarcane, with 5 larvae/box with three replicates. After topical administration, larval mortality was determined after 24, 48, 72, and 96 h to determine the LD50. Adults were tested for antifeedant effect determined using ten-centimeter-long sections of sugarcane stem divided into equal longitudinal halves. […]
Finney states that the statistical analysis and probit analysis were conducted using the SPSS 25.0 program (Statistical Package for Social Sciences, Armonk, NY, USA). Chemical components were determined by PCA using SPSS 25.0 program and presented using XLSTAT 2018.1. […] The range of LC50 was calculated with a 95 percent confidence interval using least-squares. […]

dicaffeoyl-tartaric acid [Chicoric acid]
LC50: 1132 (1004–1198) µg/mL
